Measured values as given in publication PMC8765435, “In Vitro Antimalarial Activity of Inhibitors of the Human GTPase Rac1” (Antimicrobial Agents and Chemotherapy, 2022).

System: HMEC-1 human microvascular endothelial cells
Assay: Cell cytotoxicity MTT assay
Format: cell-based
Settings: ratio IC50 against HMEC-1 cells / IC50 against D10 asexual parasites
Protocol: Cytotoxicity was evaluated on human microvascular endothelial cells (HMEC-1) as detailed in the supplemental material. […] Plates were then read on a microplate reader (Synergy 4; BioTek) at a wavelength of 550 nm (reference, 650 nm). […] All tests were performed in duplicate at least three times.
The selectivity index (SI) is the ratio between the cytotoxic IC50 value against HMEC-1 cells and the parasitic IC50 value against the D10 strain and indicates the compound selectivity for the parasite.
Cytotoxicity was evaluated on Human Microvascular Endothelial Cells (HMEC-1) maintained
and 2 mM L-glutamine. Cells were seeded in 96 well flat bottom tissue culture clusters (1.5x104
cells/well), let adhere overnight and treated with serial dilutions of test compounds . […]

Cc1cc(C)cc(NC(N)=Nc2ccccc2C(F)(F)F)c1 [Compound 1A116]
SI (selectivity index): 41.1
